For some of these results: Weaker means in comparison with the reference protein, sequence or condition of that experiment. For some of these results: Where a protein sequence is shown, tags need not be part of it. For some of these results: The exact form of at least one protein or probe is not confirmed. For some of these results: Negatives hold for the conditions tested. For some of these results: At least one verdict was read from the data and is not stated in words by the source.
Columns and labels:
[1] = molecular target: T1, PFD0985w_D2 (AP2 domain 2) (Plasmodium falciparum) (UniProt Q8I1N6); assay: EMSA; settings: no binding in absence of either motif (data not shown); LightShift EMSA buffer, 2.5% glycerol, 5 mM MgCl2, 10 mM EDTA, 50 mM KCl, 0.05% NP-40, 50 ng/uL poly(dI-dC), 10 fmol biotin probe, 50 or 250x competitor; recombinant protein; protein details: N-terminal GST (pGEX-4T1); label: 5' biotin
T1 sequence (looked up, limits assumed): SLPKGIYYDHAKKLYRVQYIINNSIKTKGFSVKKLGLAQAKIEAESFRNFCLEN

[2] = test system: PF13_0235_D1 (AP2 domain 1) (Plasmodium falciparum); assay: EMSA; settings: LightShift EMSA buffer, 2.5% glycerol, 5 mM MgCl2, 10 mM EDTA, 50 mM KCl, 0.05% NP-40, 50 ng/uL poly(dI-dC), 10 fmol biotin probe, 50 or 250x competitor, recombinant protein, protein details: N-terminal GST (pGEX-4T1), label: 5' biotin
[3] = molecular target: T2, PF13_0235 D1ext (PF3D7_1342900, AP2 domain transcription factor, putative) (Plasmodium falciparum) (UniProt C0H5G5); assay: EMSA; settings: 5 mM MgCl2 with 10 mM EDTA; LightShift buffer, 2.5% glycerol, 50 mM KCl, 0.05% NP-40, 50 ng/uL poly(dI-dC); room temperature, 20 min; purified recombinant protein; protein details: N-terminal GST (pGEX-4T1), kept; label: 5' biotin
T2 sequence (looked up, limits assumed): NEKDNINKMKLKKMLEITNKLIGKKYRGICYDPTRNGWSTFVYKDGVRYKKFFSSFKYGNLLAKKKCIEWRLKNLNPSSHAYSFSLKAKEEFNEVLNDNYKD

[4] = test system: PF11_0091 AP2 domain (Plasmodium falciparum); assay: EMSA; settings: LightShift EMSA buffer, 2.5% glycerol, 5 mM MgCl2, 10 mM EDTA, 50 mM KCl, 0.05% NP-40, 50 ng/uL poly(dI-dC), 10 fmol biotin probe, 50 or 250x competitor; recombinant protein; protein details: N-terminal GST (pGEX-4T1); label: 5' biotin
[5] = test system: PFL1900w_DLD (domain-linker-domain) (Plasmodium falciparum); assay: EMSA; settings: LightShift EMSA buffer, 2.5% glycerol, 5 mM MgCl2, 10 mM EDTA, 50 mM KCl, 0.05% NP-40, 50 ng/uL poly(dI-dC), 10 fmol biotin probe, 50 or 250x competitor, recombinant protein, protein details: N-terminal GST (pGEX-4T1)
[6] = test system: PF10_0075_D3 (AP2 domain 3) (Plasmodium falciparum); assay: EMSA; settings: LightShift EMSA buffer, 2.5% glycerol, 5 mM MgCl2, 10 mM EDTA, 50 mM KCl, 0.05% NP-40, 50 ng/uL poly(dI-dC), 10 fmol biotin probe, 50 or 250x competitor; recombinant protein; protein details: N-terminal GST (pGEX-4T1); label: 5' biotin
[7] = test system: PFL1900w_DLD (domain-linker-domain) (Plasmodium falciparum); assay: competition with a labelled probe; settings: unlabeled, does not compete with secondary motif probe; LightShift EMSA buffer, 2.5% glycerol, 5 mM MgCl2, 10 mM EDTA, 50 mM KCl, 0.05% NP-40, 50 ng/uL poly(dI-dC), 10 fmol biotin probe, 50 or 250x competitor; recombinant protein; protein details: N-terminal GST (pGEX-4T1); label: 5' biotin (probe), unlabeled as competitor
[8] = molecular target: T3, PFL1900w DLD (PF3D7_1239200, AP2 domain transcription factor, putative) (Plasmodium falciparum) (UniProt Q8I531); assay: EMSA; settings: 5 mM MgCl2 with 10 mM EDTA; LightShift buffer, 2.5% glycerol, 50 mM KCl, 0.05% NP-40, 50 ng/uL poly(dI-dC); room temperature, 20 min; purified recombinant protein; residues 2149-2347; protein details: N-terminal GST (pGEX-4T1), kept; label: 5' biotin
T3 sequence (looked up): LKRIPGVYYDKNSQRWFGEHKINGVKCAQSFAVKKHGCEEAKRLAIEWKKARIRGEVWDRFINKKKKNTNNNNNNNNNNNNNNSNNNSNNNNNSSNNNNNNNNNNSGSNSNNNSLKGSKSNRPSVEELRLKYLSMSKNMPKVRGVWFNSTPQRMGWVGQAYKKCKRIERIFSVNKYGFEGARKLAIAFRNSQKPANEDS

## AATATTATAATAGTCGTAGCCATCAATAAAAAAAAATGGTAATATAGATTTTCGTTTATATT (double strand) [No motif]
[1]
  binding result: no binding

## TTTTAAAAAAAAAAAAAAAGCCCCGCGGAAAGGGGCCATTGGATATATATTTAGTATTCC (double strand) [hsp86]
[2]
  binding result: binds

## TTTATATTATATATATATAATAATTTAGGCCCCGTGCCCTTATTTTGATTTTTTTTTTTTT (double strand) [hsp70]
[2]; binds, similar to hsp86 with one G-box
  binding result: binds more weakly
[3]
  binding result: binds more weakly

## AAGCAAATAAGATATTCCAAAAAAAAGTATTCTAATGTGTACTAATAAACCTTTATATAA (double strand) [gbp130]
[4]
  binding result: binds

## TTTTAAAAAAAAAAAAAAAGTATAGCGGAAAGGGGCCATTGGATATATATTTAGTATTCC (double strand) [hsp86-MUT1]
[2]; severely reduced
  binding result: binds more weakly

## TTTTAAAAAAAAAAAAAAAGCCCCGCGGAAATATACCATTGGATATATATTTAGTATTCC (double strand) [hsp86-MUT2]
[2]; severely reduced
  binding result: binds more weakly

## AATATTATAATAGTCGTAGCCATCAATTCTACAAAATGGTAATATAGATTTTCGTTTATATT (double strand) [PFL1900w_DLD-1°]
[5]; data not shown, label: 5' biotin
  binding result: binds

## ATTAATTTAATATGTACGCAAGGTGCACACTGGTGCATTAAAAAAAAAATATATATTAAT (double strand) [rhopH3]
[6]
  binding result: binds

## AAATTGTGTAAATTCATATTCGATAAAGTGCATTAATTTTATTTATCAATTGTAAACATA (double strand) [msp1]
[6]
  binding result: binds

## AATATTATAATAGTCGTAGCCATCAATACCGCGGTATGGTAATATAGATTTTCGTTTATATT (double strand) [PFL1900w_DLD-3°]
[5]; shifted (data not shown), lower preference than secondary, label: 5' biotin (probe), unlabeled as competitor
  binding result: binds more weakly
[7]
  binding result: no binding

## TCAACAATTATTATATAATTAATTAGAAGTGCATTAGGTAACAACTGTCGAATAAATATAT (double strand) [msp10]
[6]
  binding result: binds

## AATATTATAATAGTCGTAGCCATCAATACGACATCATGGTAATATAGATTTTCGTTTATATT (double strand) [PFL1900w_DLD-2°]
[5]; preferred over tertiary motif, label: 5' biotin (probe), unlabeled as competitor
  binding result: binds

## TTTTAAAAAAAAAAAAAAAGTATAGCGGAAATATACCATTGGATATATATTTAGTATTCC (double strand) [hsp86-MUT3]
[2]; both G-boxes removed: binding eliminated
  binding result: no binding

## AATATTATAATAGTCGTAGCCATCAATACCGCGGTATGGTAATATAGATTTTCGTTTATATT (double strand) [PFL1900w_DLD-3 (motif rank)]
[8]
  binding result: binds more weakly

— article PMC2965767, “Identification and Genome-Wide Prediction of DNA Binding Specificities for the ApiAP2 Family of Regulators from the Malaria Parasite”
